Measurements reported in PubChem BioAssay AID504761 (Drosophila RNAi Screening Center, 2011).
Aim: 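Fly genes whose silencing reduces dengue virus type 2 infection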 (primary screen). Cell system: D.Mel-2 cells from Drosophila. Knock-down reagent: long dsRNA against Drosophila genes. Conditions: infection with dengue virus type 2; dose and infection time not stated. Measured: 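Per well on two replicate plates, imaging gave the percent of cells positive for viral envelope protein, ranked by infection, and a nuclear count of cells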. Scale: infection score: higher = more virus-infected cells; cell count: higher = more cells in the well. Rule for the call: 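Very low infection ranking in both replicate wells (chance probability at most 0.065), then a retest showing infection dropped 1.5-fold or more at p below 0.05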. Meaning of the calls: active = confirmed: knock-down lowers infection; inactive = not picked or not confirmed.
The screen tested about 22,000 reagents; shown is an unselected part of those with a known target gene and a result. Over the whole deposit, 116 (0.52%) are marked active. 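Calls depend on retest data that are not deposited; infection was ranked per plate without normalising between plates; the unit of the infection score is not given.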 The raw values are shown without normalisation. A number with no mark means an inactive call. A plus sign joins genes that one reagent is predicted to hit. The record does not give: the amount of reagent, the time to read-out.

beta3GalTII [DRSC07253] — infection score, replicate 1: 7.29; cell count, replicate 1: 7245; cell count, replicate 2: 450
beta3GalTII [DRSC29091] — infection score, replicate 1: 6.67; infection score, replicate 2: 13.8; cell count, replicate 1: 1019; cell count, replicate 2: 6418
eIF4E1 [DRSC11342] — infection score, replicate 1: 12.2; infection score, replicate 2: 4.91; cell count, replicate 1: 4343; cell count, replicate 2: 5032
eIF4E1 [DRSC23583] — infection score, replicate 1: 9.86; infection score, replicate 2: 1.66; cell count, replicate 1: 4878; cell count, replicate 2: 4868
GCC88 [DRSC14264] — infection score, replicate 1: 10.9; infection score, replicate 2: 32.9; cell count, replicate 1: 6450; cell count, replicate 2: 5481
GCC88 [DRSC29299] — infection score, replicate 2: 4.62; cell count, replicate 1: 366; cell count, replicate 2: 736
SIDL [DRSC16077] — infection score, replicate 1: 2.53; infection score, replicate 2: 17.1; cell count, replicate 1: 830; cell count, replicate 2: 2683
Rcd2 [DRSC11756] — infection score, replicate 1: 6.88; infection score, replicate 2: 15.3; cell count, replicate 1: 6647; cell count, replicate 2: 6636
Or19b + Or19a [DRSC22604] — infection score, replicate 1: 6.64; infection score, replicate 2: 3.89; cell count, replicate 1: 6309; cell count, replicate 2: 6228
hbn [DRSC04238] — infection score, replicate 1: 4.84; infection score, replicate 2: 4.55; cell count, replicate 1: 6486; cell count, replicate 2: 6596
hbn [DRSC04239] — infection score, replicate 1: 25.5; infection score, replicate 2: 13.1; cell count, replicate 1: 5864; cell count, replicate 2: 4765
hbn [DRSC22436] — infection score, replicate 1: 1.97; infection score, replicate 2: 1.89; cell count, replicate 1: 7109; cell count, replicate 2: 7237

2 entries from above, reduced to “cell count, replicate 2”.
eIF4E1 [DRSC23583] = 4868
GCC88 [DRSC14264] = 5481
